Laboratory results: PubChem BioAssay AID504761 (Drosophila RNAi Screening Center, 2011)
The deposit covers about 22,000 reagents; shown is a random part of those with a known target gene and a result. Over the whole deposit, 116 (0.52%) got an active call. 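Calls depend on retest data that are not deposited; infection was ranked per plate without normalising between plates; the unit of the infection score is not given.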 Raw values are not corrected between plates. Reagents against one gene are numbered here. Names joined by + are all predicted targets of the reagent. No sequences are given here. Not stated in the record: the amount of reagent, the time to read-out.

Assay: 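Insect host genes that dengue virus relies on to spread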 (primary screen)
System: D.Mel-2 cells from Drosophila
Reagents: long dsRNA against Drosophila genes
Challenge: infection with dengue virus type 2; dose and infection time not stated
Measurement: 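Cells stained for dengue envelope protein and imaged; percent of infected cells per well on duplicate plates, ranked by infection, with stained nuclei counted for cell number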
Reading the numbers: infection score: higher = more virus-infected cells; cell count: higher = more cells in the well
Rule for the call: 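Low infection ranks in the two replicates (chance level up to 0.065) followed by a retest with a 1.5-fold or larger significant decrease, p below 0.05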
Meaning of the calls: active = confirmed: knock-down lowers infection; inactive = not picked or not confirmed

gene knocked down	reagent no.	infection score, replicate 1	infection score, replicate 2	cell count, replicate 1	cell count, replicate 2	outcome
CG14333 (retired record)	1	25.8	23.9	6871	3228	inactive
CG14333 (retired record)	2	5.31	9.54	6649	6686	inactive
CG14333 (retired record)	3	7.57	0.57	5456	5951	inactive
CG14333 (retired record)	4	11.7	28.2	6302	5309	inactive
lectin-37Da	1	4.99	9.56	6407	2186	inactive
lectin-37Da	2	2.88	3.68	6984	6705	inactive
chb	1	3.36	5.82	2681	3299	inactive
CG9760	1	1.59	3.83	6273	6716	inactive
CG9760	2		0.47	405	423	inactive
Tim8	1	1.3	2.29	6514	6626	inactive
Mdr65	1	1.91	4.18	5749	6047	inactive
EbpII	1	24	51.4	6330	3593	inactive
EbpII	2	4.03	5.49	5836	4642	inactive
EbpII	3	8.26	24.2	835	6086	inactive
akirin	1	19.9	18.1	4645	4308	inactive
akirin	2	18.8	4.52	4451	5511	inactive
CG2811	1	3.07	16.5	6652	5424	inactive
Mob2	1	4.63	1.58	5766	5936	inactive
Mob2	2	1.69	4.19	6160	5949	inactive
Mob2	3	1.4	4.34	6159	6358	inactive
Cyp305a1	1	7.43	0.87	5529	7044	inactive
CG9287	1	2.74	5.09	6346	6442	inactive
CG9287	2	1.86	0.71	5689	6167	inactive
CG14006	1	0.64	3.4	6748	5978	inactive
CG31551	1	2.24	8.05	7099	7353	inactive
CG31551	2	2.33	2.49	5885	6720	inactive
CG31551	3	5.89	12.2	6857	5723	inactive
CG15386 + CG42371	1	6	8.41	5884	6328	inactive
CG15386 + CG42371	2	2.54	6.01	5868	5677	inactive
LanB2	1	9.22	2.63	6629	6576	inactive
Tmf	1	3.67	2.62	6835	7094	inactive
Tmf	2	17.9	10.2	6213	6123	inactive
CG7309	1	1.84	1.01	6562	6466	inactive
CG7309	2	15.3	9.04	6099	6717	inactive
Mvl	1	3.66	7.78	5417	5735	inactive
CG31267	1	3.41	2.49	6535	6878	inactive
RNF220	1	1.7	14.9	6417	6894	inactive
RNF220	2	16.9	18.8	6234	6469	inactive
ATPsynD	1	1.69	3.47	5101	3829	inactive
ATPsynD	2	9.21	16.8	4808	4913	inactive
CG1136	1	17.8	20.9	4413	5304	inactive
CG9662	1	8.16	3.55	6485	6797	inactive
CG14183	1	2.75	1.93	5826	6988	inactive
CG33722 + CG18749	1	1.91	7.14	5747	5673	inactive
CG33722 + CG18749	2	3.35	6.46	6606	6719	inactive
CG33722 + CG18749	3	8.86	17.8	5529	5836	inactive
GluProRS	1	1.07	11.9	5396	5124	inactive
hyd	1	10.2	4.68	6441	6941	inactive
hyd	2	0.25	25.2	398	4721	inactive
Sec5	1	1.93	0.86	5847	6527	inactive
EMC1	1	6.67	10.1	1319	5525	inactive
CG10337	1	16.8	3.1	4793	6346	inactive
grau	1	15.1	17.7	6932	7199	inactive
grau	2	12.3	11.7	7060	5142	inactive
Pdcd4	1	1.8	1.68	6397	6653	inactive
Ugt302C1	1	8.13	12.1	6332	6621	inactive
Ugt302C1	2	3.9	5.04	6057	6094	inactive
mRpL41	1	19.9	18.3	5507	4049	inactive
mRpL41	2	6.89	3.91	1117	1841	inactive

3 of these entries in another layout.
gene knocked down | reagent no. | infection score, replicate 1 | infection score, replicate 2 | cell count, replicate 1 | cell count, replicate 2 | outcome
CG10337 | 1 | 16.8 | 3.1 | 4793 | 6346 | inactive
grau | 1 | 15.1 | 17.7 | 6932 | 7199 | inactive
grau | 2 | 12.3 | 11.7 | 7060 | 5142 | inactive
